Anti-infective test results gathered from many reports (values: NIAID ChemDB through PubChem).

Shared fields: growth or infection tests; agent: Candida albicans; read-out: MIC

An empty or dashed field is not shown. Lines come from different laboratories, so protocols vary. a–b is a range or a potency band.

smiles,strain,read by,result
CC[C@](O)(c1ccc(F)cc1)[C@](O)(Cn1cncn1)c1ccc(Cl)cc1,KE-2,-,>100 µg/mL
CN(CCCC#CC(C)(C)C)c1cccc2c1CCC(=O)N2,Clinical isolate 14,-,31.25 µg/mL
Nc1ncc(/C=C/c2ccc([N+](=O)[O-])o2)nn1,-,-,10 µg/mL
COc1ccc(C[C@H](NC(=O)[C@H](N)CCCN=C(N)N)C(=O)N[C@H]2[C@@H](O)[C@H](n3cnc4c(N)ncnc43)O[C@@H]2C(=O)O)cc1,FP633,-,>100 µg/mL
Cc1ccc(C(=O)Nc2ccc3oc(-c4ccccc4)nc3c2)cc1,RSKK 628,-,25 µg/mL
O[C@H](c1ccc(F)cc1)[C@](O)(Cn1cncn1)c1ccc(Cl)cc1,KE-2,-,50 µg/mL
Cc1[nH][nH]c(=O)c1N=Nc1ccc(-c2n[nH]c(=S)n2-c2ccccc2)cc1,ATCC 2091,-,62.5 µg/mL
CCOc1cc2c(cc1F)n([O-])c(C)c(Cl)[n+]2=O,Clinical isolate 20,-,15.6 µg/mL
Nc1ncnc2c1ncn2[C@@H]1O[C@H](C(=O)NCCP(=O)(O)O)[C@@H](NC(=O)[C@H](N)CSCc2ccccc2)[C@H]1O,FP633,-,25 µg/mL
CCCC[C@](O)(c1ccc(F)cc1)[C@](O)(Cn1cncn1)c1ccccc1Cl,KE-2,-,>100 µg/mL
CCc1ccc(-c2nc3cc(NC(=O)c4ccc(C)cc4)ccc3o2)cc1,RSKK 628,-,50 µg/mL
CCCCCOc1ccc(-c2ccc(-c3ccc(C(=O)N[C@H]4C[C@@H](O)[C@@H](O)NC(=O)[C@@H]5[C@@H](O)[C@@H](C)CN5C(=O)[C@H]([C@H](C)O)NC(=O)[C@H]([C@H](O)[C@@H](O)c5ccc(O)cc5)NC(=O)[C@@H]5C[C@@H](O)CN5C(=O)[C@H]([C@H](C)O)NC4=O)cc3)cc2)cc1,Y180,-,0.04 µg/mL
C=CCn1c(-c2ccc(N=Nc3c(C)[nH]n(CCO)c3=O)cc2)n[nH]c1=S,ATCC 2091,-,125 µg/mL
CCCCSc1nc(C(N)=S)cnc1CCC,ATCC 44859,-,>31.25 µg/mL
OC(Cn1cncn1)(Cn1cncn1)c1ccc(F)cc1F,clinical isolates susceptible,broth dilution,0.032–1 µg/mL
CC(C)[C@](C)(O)[C@](O)(Cn1cncn1)c1ccc(Cl)cc1Cl,KE-2,-,>100 µg/mL
CSc1nc(C(N)=O)cnc1C(C)(C)C,ATCC 44859,-,>31.25 µg/mL
NC(N)=NCCC[C@H](N)C(=O)N[C@H]1[C@@H](O)[C@H](n2cnc3c(N)ncnc32)O[C@@H]1C(=O)O,FP633,-,12.5 µg/mL
CCCCCOc1ccc(-c2cc(-c3ccc(C(=O)N[C@H]4C[C@@H](O)[C@@H](O)NC(=O)[C@@H]5[C@@H](O)[C@@H](C)CN5C(=O)[C@H]([C@H](O)CC(N)=O)NC(=O)[C@H]([C@H](O)[C@@H](O)c5ccc(O)c(OS(=O)(=O)O)c5)NC(=O)[C@@H]5C[C@@H](O)CN5C(=O)[C@H]([C@@H](C)O)NC4=O)cc3)no2)cc1,2733A,-,0.125 µg/mL
NCCCC[C@H](N)C(=O)N[C@H]1[C@@H](O)[C@H](n2cnc3c(N)ncnc32)O[C@@H]1C(=O)O,FP633,-,>100 µg/mL
CC(C)(C)c1ccc(C(=O)Nc2ccc3oc(-c4ccccc4)nc3c2)cc1,RSKK 628,-,100 µg/mL
Nc1ncnc2c1ncn2[C@@H]1O[C@H](C(=O)O)[C@@H](NC(=O)C(N)CSCc2cccs2)[C@H]1O,FP633,-,0.8 µg/mL
C[C@@](O)(c1ccc(F)cc1)[C@](O)(Cn1cncn1)c1ccc(Cl)cc1Cl,KE-2,-,100 µg/mL
COc1ccc(C(=O)Nc2ccc3oc(-c4ccccc4)nc3c2)cc1,RSKK 628,-,50 µg/mL
O=[n+]1c(Sc2ccccc2)c(CBr)n([O-])c2ccccc21,Clinical isolate 22,-,15.6 µg/mL
CCCCc1ncc(C(N)=O)nc1SCCC,ATCC 44859,-,>31.25 µg/mL
Cc1[nH]n(CCO)c(=O)c1N=Nc1ccc(-c2n[nH]c(=S)o2)cc1,ATCC 2091,-,62.5 µg/mL
Cc1c(S(=O)(=O)c2ccccc2)[n+](=O)c2ccccc2n1[O-],Clinical isolate 22,-,7.8 µg/mL
CSc1nc(C(N)=S)cnc1CC(C)C,ATCC 44859,-,>31.25 µg/mL
Cc1[nH][nH]c(=O)c1N=Nc1ccc(C(=O)N/N=C/c2ccc(F)cc2)cc1,ATCC 2091,-,125 µg/mL
COc1ccc(C(=O)Nc2ccc3oc(-c4ccccc4)nc3c2)cc1OC,RSKK 628,-,25 µg/mL
Cc1[nH][nH]c(=O)c1N=Nc1ccc(-c2n[nH]c(=O)n2-c2ccccc2)cc1,ATCC 2091,-,62.5 µg/mL
O=C(Cc1ccccc1)Nc1ccc2oc(-c3ccccc3)nc2c1,RSKK 628,-,50 µg/mL
CCSc1nc(C(N)=O)cnc1C(C)(C)C,ATCC 44859,-,>31.25 µg/mL
CC(/C=C/C=C(\C)C(O)C(C)C(=O)O[C@H]1C[C@@H](C)C=C2C=C[C@]3(C)O[C@@H](O)CC(=O)[C@]3(C)[C@H]21)=C\C=C\C(=O)O,AC3408,-,0.78 µg/mL
CCCSc1nc(C(N)=O)cnc1C(C)(C)C,ATCC 44859,-,>31.25 µg/mL
CCc1ccc(-c2nc3cc(NC(=O)Cc4ccccc4)ccc3o2)cc1,RSKK 628,-,50 µg/mL
O[C@H](c1ccc(Cl)cc1)[C@](O)(Cn1cncn1)c1ccc(Cl)cc1,KE-2,-,50 µg/mL
O=C(Nc1ccc2oc(-c3ccccc3)nc2c1)c1ccc(Cl)cc1,RSKK 628,-,50 µg/mL
CCCCSc1nc(C(N)=O)cnc1CC(C)C,ATCC 44859,-,>31.25 µg/mL
Nc1ncnc2c1ncn2[C@@H]1O[C@H](C(=O)O)[C@@H](NC(=O)[C@H](N)Cc2ccccc2)[C@H]1O,FP633,-,>100 µg/mL
C[C@@](O)(c1ccc(F)cc1)[C@](O)(Cn1cncn1)c1ccc(F)cc1,KE-2,-,>100 µg/mL
CCCCSc1nc(C(N)=O)cnc1CCCC,ATCC 44859,-,>31.25 µg/mL

A second listing of 5 rows from above:

smiles	strain	read by	result
CCCCSc1nc(C(N)=O)cnc1CCCC	ATCC 44859	-	>31.25 µg/mL
Nc1ncnc2c1ncn2[C@@H]1O[C@H](C(=O)O)[C@@H](NC(=O)[C@H](N)Cc2ccccc2)[C@H]1O	FP633	-	>100 µg/mL
Nc1ncc(/C=C/c2ccc([N+](=O)[O-])o2)nn1	-	-	10 µg/mL
CCCCCOc1ccc(-c2cc(-c3ccc(C(=O)N[C@H]4C[C@@H](O)[C@@H](O)NC(=O)[C@@H]5[C@@H](O)[C@@H](C)CN5C(=O)[C@H]([C@H](O)CC(N)=O)NC(=O)[C@H]([C@H](O)[C@@H](O)c5ccc(O)c(OS(=O)(=O)O)c5)NC(=O)[C@@H]5C[C@@H](O)CN5C(=O)[C@H]([C@@H](C)O)NC4=O)cc3)no2)cc1	2733A	-	0.125 µg/mL
C[C@@](O)(c1ccc(F)cc1)[C@](O)(Cn1cncn1)c1ccc(F)cc1	KE-2	-	>100 µg/mL